PubChem BioAssay AID504761 – Drosophila RNAi Screening Center, 2011

- Test: 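Genome-wide fly cell screen for genes dengue virus requires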 (primary screen)
- Cell system: D.Mel-2 cells from Drosophila
- Reagents: long dsRNA against Drosophila genes
- Conditions: infection with dengue virus type 2; dose and infection time not stated
- Detection: 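Cells stained for dengue envelope protein and imaged; percent of infected cells per well on duplicate plates, ranked by infection, with stained nuclei counted for cell number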
- Scale: infection score: higher = more virus-infected cells; cell count: higher = more cells in the well
- Hit rule: 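Very low infection ranking in both replicate wells (chance probability at most 0.065), then a retest showing infection dropped 1.5-fold or more at p below 0.05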
- Calls: active = confirmed: knock-down lowers infection; inactive = not picked or not confirmed
The deposit covers about 22,000 reagents; below is an unselected part of those that have a named target and a result. Of all reagents, 116 (0.52%) got an active call. 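Calls depend on retest data that are not deposited; infection was ranked per plate without normalising between plates; the unit of the infection score is not given.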 Raw values vary from plate to plate and are shown uncorrected. Further read-outs or replicates are left out here. Not stated in the record: the amount of reagent, the time to read-out.

For Vps26 [DRSC18555] the deposit lists infection score, replicate 1 = 1.52; cell count, replicate 1 = 5272; inactive.
With knock-down of Vps26 [DRSC23556] the results were infection score, replicate 1 = 4.8; cell count, replicate 1 = 5724; inactive.
After knock-down of Scgdelta [DRSC18544], the screen gave infection score, replicate 1 = 2.78; cell count, replicate 1 = 720; inactive.
Knock-down of CG31104 [DRSC14658] came out at: infection score, replicate 1 = 4.35; cell count, replicate 1 = 6180; inactive.
CG31104 [DRSC24390] scored infection score, replicate 1 = 3.67; cell count, replicate 1 = 6184; inactive.
Nepl12 [DRSC16411] showed infection score, replicate 1 = 1.22; cell count, replicate 1 = 5833; inactive.
Against CG13042 [DRSC09923], the values are infection score, replicate 1 = 4.83; cell count, replicate 1 = 5902; inactive.
After knock-down of CG13042 [DRSC28618], the screen gave infection score, replicate 1 = 26.1; cell count, replicate 1 = 6011; inactive.
After knock-down of CG11560 [DRSC09843] the results were infection score, replicate 1 = 14.8; cell count, replicate 1 = 5694; inactive.
After knock-down of CG11560 [DRSC27017], the record shows infection score, replicate 1 = 9.52; cell count, replicate 1 = 5675; inactive.
Knock-down of CG11334 [DRSC14066] came out at: infection score, replicate 1 = 0.84; cell count, replicate 1 = 5854; inactive.
CG11334 [DRSC14302] showed infection score, replicate 1 = 4.6; cell count, replicate 1 = 6800; inactive.
With knock-down of CG6693 [DRSC28189] the results were infection score, replicate 1 = 6.92; cell count, replicate 1 = 5824; inactive.
Silencing of Tango6 [DRSC02671] came out at: infection score, replicate 1 = 25.8; cell count, replicate 1 = 6358; inactive.
Tango6 [DRSC29389] gave cell count, replicate 1 = 334; inactive.
